The list shows a part of the results, in another mix than the full data. Records with an inconclusive call do not appear. Some salts or complexes appear as unconnected parts, following the source record. The source made the active and inactive calls. Rule as the data show it: active = activity change below about -60%; inconclusive = no clear call, values can overlap the other calls; inactive = above about -39%.
% is scaled to controls: 0 for no effect and ±100 for the full control effect.

The nature of this test: qHTS Assay for inhibitors of the human cytomegalovirus (HCMV). The note with it: HFF cells, HCMV-luciferase reporter, 72 h; at 57.5 µM; active compounds read low. An excerpt:
NCGC Assay Overview: Infection with human cytomegalovirus (HCMV) continues to pose significant threats for pregnant women and immunocompromised hosts. HCMV causes serious morbidity and mortality in transplant recipients, and congenital HCMV is the leading infectious cause of mental retardation and deafness in children. In the 1990s, the annual costs associated with the disease burden of congenital CMV were estimated at around $2 billion. A HCMV vaccine is not available yet and HCMV therapies result in intolerable side effects and emergence of drug resistant viruses. […] Towards this goal we have developed and characterized a luciferase HCMV reporter that was initially used in 96 well plates and then optimized to 1536-well plates for utilization in screening of the MLSMR collection, the NGCG diversity collection and the NCGC Pharmaceutical Collection of approved and investigational drugs.
NCGC Assay Protocol Summary:
This is a cell-based assay for HCMV inhibition in HFFs cells. The screening used 2 compound doses and the HCMV-luciferase at MOI of 1 PFU/cell. Cells were treated and infected with HCMV. At 72 h post infection cell lysates were collected and luciferase activity was determined using the Glomax-Multi + Detection System (Promega, Madison, WI). Data were normalized to the controls for basal activity (buffer only) and known HCMV inhibitors Salinmoycin.
1536-well assay protocol for the assay:
(1) Add 3 ul CMV/HFF cell culture. 1000 cells/well in DMEM nirmal media.
(2) Incubate 16 hr at 37C.
(3) Add 23 nl control compound, 10uM of Salinomycin.
(4) Add 23 nl compounds in DMSO solution.
(5) Add 3 ul CMV suspension. Final 1 puf/ul, Virus stock 2000pfu/ul
(6) Incubate 72 hrs at 37C.
(7) Add 4 ul OneGlo Luc Reagent.
(8) Incubate 5 min at room temperature.
Consider `CC(C)c1ccc(NC2CCN(C(=O)OC(C)(C)C)CC2)cc1`, for which the activity change, negative = inhibition was inactive: 30.2%.

As to `COc1ccc(CN(CCCl)CCCl)cc1Cl`, the activity change, negative = inhibition was inactive: -31.4%.

Turning to `CN(C)c1cccc(C(=O)NCC2(N3CCCCC3)CCCCC2)c1`, the activity change, negative = inhibition is inactive: 19.6%.

As to `O=[N+]([O-])c1cc([N+](=O)[O-])c(OC2CCCCC2O)c([N+](=O)[O-])c1` (centres undefined), the activity change, negative = inhibition is inactive: -4.76%.

For `COc1cc(OC)c(C(=O)NCC2(N(C)C)CCCCC2)cc1OC`, the activity change, negative = inhibition is inactive: 15.3%.

Regarding `CCN(CC)CCCNc1ccccc1[N+](=O)[O-].O=[N+]([O-])c1cc([N+](=O)[O-])c(O)c([N+](=O)[O-])c1`, the activity change, negative = inhibition is inactive: 11.8%.

For `CCC(c1nnnn1C(C)(C)C)N1CCC(n2c(=O)[nH]c3ccccc32)CC1` (centres undefined), the activity change, negative = inhibition is inactive: -12.8%.

For `CCCCn1nnnc1C(c1ccnc2ccccc12)N1CCC(n2c(=O)[nH]c3ccccc32)CC1` (centres undefined), the activity change, negative = inhibition is inactive: -35.1%.

Turning to `O=C(OC1CN2CCC1CC2)c1ccc([N+](=O)[O-])cc1` (centres undefined), the activity change, negative = inhibition is inactive: 30.5%.

For the molecule `O=C(NCC1(N2CCCCC2)CCCCC1)c1cncc(Br)c1`, the activity change, negative = inhibition was inactive: 0%.

With `COc1ccc2c(c1O)-c1c(O)c(OC)cc3c1[C@H](C2)[N+](C)(C)CC3.O=[N+]([O-])c1cc([N+](=O)[O-])c([O-])c([N+](=O)[O-])c1[O-]`, the activity change, negative = inhibition was inactive: 86.4%.

On to `CN1CCC(Nc2cccc(F)c2)CC1`, for which the activity change, negative = inhibition is inactive: 33%.

For the molecule `O=[N+]([O-])c1cc([N+](=O)[O-])c(Nc2ccc(Cl)cc2)c([N+](=O)[O-])c1`, the activity change, negative = inhibition is active: -64.6%.

For the molecule `Cc1ccc(C(=O)NCC2(N(C)C)CCCCC2)o1`, the activity change, negative = inhibition is inactive: -4.45%.

With `CCCOc1ccc(C(=O)NCC2(N(C)C)CCCCC2)cc1OC`, the activity change, negative = inhibition is inactive: 16.9%.

For the molecule `O=C(NCC1(N2CCOCC2)CCCCC1)c1ccccc1Br`, the activity change, negative = inhibition is inactive: 1.46%.

Take `CC(C)(C)n1nnnc1C(c1ccccc1OC(F)(F)F)N1CCC(n2c(=O)[nH]c3ccccc32)CC1` (centres undefined): the activity change, negative = inhibition is inactive: -17.8%.

For `O=C(NCC1(N2CCCCC2)CCCCC1)c1ccc(OC(F)F)cc1`, the activity change, negative = inhibition was inactive: -25.1%.

In the case of `CCN1CCC(Nc2ccc(Cl)cc2)CC1`, the activity change, negative = inhibition is inactive: 6.54%.

`N#CC1(Nc2ccccc2)CCN(CCc2ccccc2)CC1`: the activity change, negative = inhibition is inactive: -9.12%.

Regarding `O=c1[nH]c2ccccc2n1C1CCN(C(c2ccccc2OC(F)(F)F)c2nnnn2C2CCCC2)CC1` (centres undefined), the activity change, negative = inhibition is inactive: -24%.

For `CSc1ccc(C(=O)NCC2(N3CCOCC3)CCCCC2)cc1`, the activity change, negative = inhibition is inactive: -21.9%.

`CCOc1ccc(C(=O)NCC2(N3CCOCC3)CCCCC2)cc1`: the activity change, negative = inhibition is inactive: 5.6%.

Regarding `O=C(NCC1(N2CCCCC2)CCCCC1)c1cccc([N+](=O)[O-])c1`, the activity change, negative = inhibition is inactive: 7.6%.

As to `O=[N+]([O-])c1cc([N+](=O)[O-])c(NCC2CCS(=O)(=O)C2)c([N+](=O)[O-])c1` (centres undefined), the activity change, negative = inhibition was inactive: -10.2%.

Turning to `O=C(NCC1(N2CCCCC2)CCCCC1)c1cccc(C(F)(F)F)c1`, the activity change, negative = inhibition is inactive: 14.3%.

Take `O=C(NCC1(N2CCOCC2)CCCCC1)c1cc(=O)[nH]c2ccccc12`: the activity change, negative = inhibition is inactive: -14.1%.

Turning to `COc1cc(C(=O)NCC2(N3CCCCC3)CCCCC2)ccc1OC(F)F`, the activity change, negative = inhibition is inactive: -12.4%.

`COc1ccc(NC2CCN(C(=O)OC(C)(C)C)CC2)cc1`: the activity change, negative = inhibition is inactive: 18.2%.

Regarding `CC(C)c1ccc(C(=O)NCC2(N3CCOCC3)CCCCC2)cc1`, the activity change, negative = inhibition is inactive: 26.9%.

For `CN1CCN(CCOC(=O)C(O)(c2ccccc2)c2ccccc2)CC1`, the activity change, negative = inhibition was inactive: 12.2%.

As for `CC(C)(C)n1nnnc1C(c1ccccc1)N1CCC(n2c(=O)[nH]c3ccccc32)CC1` (centres undefined), the activity change, negative = inhibition was inactive: -19.4%.

With `O=C(NCC1(N2CCOCC2)CCCCC1)c1ccc(Cl)cc1`, the activity change, negative = inhibition was inactive: 13.5%.

Take `O=C1CCN(Cc2ccccc2)CC1`: the activity change, negative = inhibition was inactive: -28.2%.

As to `CCOc1ccc(C)cc1CN(CCCl)CCCl`, the activity change, negative = inhibition was inactive: -10.4%.

As to `COc1ccccc1C(=O)NCC1(N2CCOCC2)CCCCC1`, the activity change, negative = inhibition is inactive: 2.27%.

As to `O=C(NCC1(N2CCCCC2)CCCCC1)c1ccc(F)cc1`, the activity change, negative = inhibition was inactive: 0.656%.

On to `CCCCOc1ccc(C(=O)NCC2(N3CCOCC3)CCCCC2)cc1`, for which the activity change, negative = inhibition was inactive: -7.09%.

With `O=P1(N(CCCl)CCCl)SCCCS1`, the activity change, negative = inhibition is inactive: 29.6%.

Consider `CCOC(=O)N1CCC(Nc2ccc(F)cc2)CC1`, for which the activity change, negative = inhibition was inactive: -1.46%.

For `COc1ccc(NC2CCN(CCc3ccccc3)CC2)c(OC)c1`, the activity change, negative = inhibition was inactive: -7.16%.

As for `COc1cc(C(=O)NCC2(N(C)C)CCCCC2)ccc1OC(F)F`, the activity change, negative = inhibition was inactive: -18.9%.

As for `CCOC(=O)N1CCC(Nc2cccc(C)c2)CC1`, the activity change, negative = inhibition is inactive: 8.8%.

With `O=c1[nH]c2ccccc2n1C1CCN(C(c2cccc3ccccc23)c2nnnn2C2CCCC2)CC1` (centres undefined), the activity change, negative = inhibition was inactive: -22.3%.

Turning to `COc1ccc(C(=O)NCC2(N3CCCCC3)CCCCC2)c(OC)c1OC`, the activity change, negative = inhibition was inactive: 24%.

As for `CC(C)(C)OC(=O)N1CCC(N(C(=O)c2ccccc2)c2ccc(F)cc2)CC1`, the activity change, negative = inhibition was inactive: -10.4%.

`O=C(NCC1(N2CCCCC2)CCCCC1)c1ccc(=O)[nH]c1`: the activity change, negative = inhibition is inactive: -2.74%.

`CCCCn1nnnc1C(CC)N1CCC(n2c(=O)[nH]c3ccccc32)CC1` (centres undefined): the activity change, negative = inhibition is inactive: -27.8%.

As to `O=C(NCC1(N2CCCCC2)CCCCC1)c1cccs1`, the activity change, negative = inhibition was inactive: -30.3%.

For `CSc1ccccc1C(=O)NCC1(N2CCCCC2)CCCCC1`, the activity change, negative = inhibition is inactive: 0%.

`Cc1cccc(NC2(C#N)CCN(Cc3ccccc3)CC2)c1`: the activity change, negative = inhibition was inactive: 46.4%.

For the molecule `O=c1[nH]c2ccccc2n1C1CCN(C(c2ccccc2OC(F)(F)F)c2nnnn2C2CCCCC2)CC1` (centres undefined), the activity change, negative = inhibition is inactive: -32.9%.

For the molecule `O=C(NCC1(N2CCCCC2)CCCCC1)c1ccc(Cl)nc1`, the activity change, negative = inhibition was inactive: -25.3%.

As for `Cc1cc(C)cc(N(C(=O)c2ccccc2)C2CCN(C(=O)OC(C)(C)C)CC2)c1`, the activity change, negative = inhibition was inactive: -33.9%.

For the molecule `O=C(NCC1(N2CCOCC2)CCCCC1)c1cc2ccccc2o1`, the activity change, negative = inhibition was inactive: -7.89%.

As for `O=c1[nH]c2ccccc2n1C1CCN(C(c2cc3ccccc3o2)c2nnnn2C2CCCCC2)CC1` (centres undefined), the activity change, negative = inhibition was inactive: -23.6%.

Consider `O=C(OC1CN2CCC1CC2)C1c2ccccc2Oc2ccccc21` (centres undefined), for which the activity change, negative = inhibition is inactive: -5.02%.

As to `N#CC1(Nc2ccccc2)CCN(Cc2ccccc2)CC1`, the activity change, negative = inhibition is inactive: 37.2%.

As for `O=C(NCC1(N2CCCCC2)CCCCC1)c1ccc(Cl)s1`, the activity change, negative = inhibition is inactive: -3.86%.

For the origin of these results see PubChem BioAssay AID1259415 (National Center for Advancing Translational Sciences (NCATS), 2018).
